Experimental data: PubChem BioAssay AID1224833 (University of Georgia, 2016)

Screen: 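Host factors restraining rotavirus as candidate antiviral genes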 (primary screen)
Cells: monkey MA104 kidney cells
Knock-down reagent: siRNA pool against human genes, 50 nM
Time to read-out: 48 h knock-down before infection; read 24 h after infection
Treatment: infection with rotavirus strain RV3 two days after transfection; infectious dose for this stage not given
Detection: 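z-score of rotavirus antigen signal per well, from a fluorescent immunoassay, relative to non-targeting control wells on the same plate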
Reading the numbers: z-score vs non-targeting control: higher = more rotavirus replication than with non-targeting control
Hit rule: In these data the active calls have z-score vs non-targeting control at about -1 or lower, or at about 1 or higher
Meaning of the calls: active = z-score beyond 1 either way; inactive = z-score within 1 of zero
The whole screen tested about 12,000 reagents; this is a part drawn at random. In the full data, about 5,600 (46%) got an active call. 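Active calls cover z-scores past 1 in both directions, so they include lowered as well as raised rotavirus replication.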

| target | PubChem SID | z-score vs non-targeting control | outcome |
| --- | --- | --- | --- |
| PPY | SID329574930 | -0.971 | inactive |
| TMEM260 | SID329579463 | -0.586 | inactive |
| ARMC10 | SID329581455 | -1.23 | active |
| MAPRE1 | SID329577725 | -0.519 | inactive |
| PURG | SID329578731 | 2.24 | active |
| ZNF488 | SID329582371 | 1.9 | active |
| DOCK8-AS1 | SID329583137 | -0.238 | inactive |
| CD81 | SID329573095 | 1.18 | active |
| SST | SID329575496 | -0.28 | inactive |
| PAPPA | SID329574745 | 1.14 | active |
| CLPS | SID329573178 | -0.0936 | inactive |
| ETV2 | SID329573574 | -0.262 | inactive |
| PHOSPHO2 | SID329584640 | -1.24 | active |
| SLC9A4 | SID329584346 | 0.105 | inactive |
| YAE1 | SID329580132 | 2.12 | active |
| SLC22A24 | SID329583826 | -1.14 | active |
| TSPYL2 | SID329580543 | 3.55 | active |
| TAS1R2 | SID329581266 | -0.717 | inactive |
| EXOSC3 | SID329578852 | -0.566 | inactive |
| MYEF2 | SID329578815 | -0.842 | inactive |
| SUOX | SID329575524 | -2.2 | active |
| CLDND1 | SID329580042 | 1.05 | active |
| TRHDE | SID329578736 | 1.06 | active |
| PSG11 | SID329574973 | 0.153 | inactive |
| OR4C16 | SID329583489 | -0.43 | inactive |
| VCX | SID329578425 | -1.2 | active |
| CMA1 | SID329573182 | 1.24 | active |
| PCDHGB2 | SID329579962 | 0.339 | inactive |
| MRPS23 | SID329579161 | -1.42 | active |
| PCDHA8 | SID329579989 | 1.99 | active |
| PRF1 | SID329574936 | 0.987 | inactive |
| PUM2 | SID329577961 | -1.11 | active |
| OXCT2 | SID329580545 | -0.775 | inactive |
| VWA5A | SID329574316 | -0.187 | inactive |
| FKBP1A | SID329573648 | -1.47 | active |
| KLF17 | SID329582594 | 0.718 | inactive |
| SLC7A9 | SID329577553 | 1.09 | active |
| SYT14 | SID329583733 | -0.887 | inactive |
| EPS8L3 | SID329580898 | 1.08 | active |
| ZNF490 | SID329580247 | -0.714 | inactive |
| PATE1 | SID329583179 | -2.24 | active |
| RPUSD4 | SID329581751 | -0.961 | inactive |
| RDH16 | SID329576192 | 2.74 | active |
| GDF3 | SID329576666 | -0.878 | inactive |
| FOXE3 | SID329573659 | -0.897 | inactive |
| FDPS | SID329573626 | -1.38 | active |
| DMRTC2 | SID329580529 | 0.702 | inactive |
| OR52N1 | SID329580890 | -0.39 | inactive |
| DMAP1 | SID329579936 | -0.508 | inactive |
| MEAK7 | SID329580361 | 1.38 | active |
| GLIPR1 | SID329577480 | -0.2 | inactive |
| ARHGEF39 | SID329581765 | -0.367 | inactive |
| SLC18B1 | SID329582328 | -0.883 | inactive |
| ANKRD34A | SID329583905 | -1.45 | active |
| RYBP | SID329577991 | -0.711 | inactive |
| SEC14L3 | SID329583790 | -0.634 | inactive |
| PAPOLG | SID329580712 | 1.32 | active |
| ENOX2 | SID329577198 | 1.04 | active |
| HCCS | SID329573939 | 1.36 | active |
| SACS | SID329578365 | -0.0921 | inactive |
| ZSWIM7 | SID329582511 | -0.0944 | inactive |
| MRPL46 | SID329578422 | -0.617 | inactive |
| EEF1AKMT3 | SID329578210 | 0.818 | inactive |
| ARF3 | SID329572805 | -1.61 | active |
| TXNDC9 | SID329577017 | -0.971 | inactive |
| KIRREL1 | SID329579658 | 1.06 | active |
| LURAP1L | SID329583979 | -0.622 | inactive |
| H2AB2 | SID329584633 | 0.296 | inactive |
| LAPTM4B | SID329579708 | -0.189 | inactive |
| SLCO2A1 | SID329575379 | -0.87 | inactive |
| CDY1B | SID329583677 | -0.154 | inactive |
| LGI1 | SID329576480 | -2.29 | active |
| TRPS1 | SID329575720 | -0.96 | inactive |
| FAM193B | SID329579319 | -0.79 | inactive |
| MTRF1 | SID329576689 | -1.56 | active |
| AP4E1 | SID329577992 | -1.67 | active |
| MVB12B | SID329581901 | 0.104 | inactive |
| KIAA0319 | SID329576839 | 0.453 | inactive |
| DENND1A | SID329580360 | -0.733 | inactive |
| PDRG1 | SID329581320 | 0.53 | inactive |
| OSCAR | SID329582525 | -2.23 | active |
| ARHGAP6 | SID329572817 | -2.26 | active |
| RBM22 | SID329579815 | -0.911 | inactive |
| LSM2 | SID329580387 | -1.03 | active |
| PNLIPRP2 | SID329574887 | 0.638 | inactive |
| ZNF287 | SID329580219 | 0.716 | inactive |
| KHDC1 | SID329581247 | -1.56 | active |
| GPC5 | SID329573643 | -2.07 | active |
| CPVL | SID329579298 | 2 | active |
| DENND1C | SID329581096 | -0.974 | inactive |
| GLTP | SID329578975 | 2.88 | active |
| HOXA1 | SID329574010 | 2.68 | active |
| EGFL7 | SID329578944 | -0.321 | inactive |
| CARD11 | SID329581619 | 0.796 | inactive |
| UTP15 | SID329581526 | -0.827 | inactive |
| EDNRA | SID329573484 | -1.16 | active |
| OR9I1 | SID329583535 | -0.282 | inactive |
| SIGLEC10 | SID329581891 | -1.48 | active |
| SYN3 | SID329576033 | -0.597 | inactive |
| XPO4 | SID329580613 | -1.27 | active |
| ZNF574 | SID329580669 | -0.0829 | inactive |
| ARSB | SID329572829 | -0.759 | inactive |
| DNAI3 | SID329582558 | 0.123 | inactive |
| CD86 | SID329573068 | 0.964 | inactive |
| RAB39A | SID329579369 | -0.891 | inactive |
| SNTB1 | SID329575428 | 0.501 | inactive |
| LPAR5 | SID329580166 | -1.09 | active |
| CHAC2 | SID329584643 | -1.67 | active |
| POLR2J | SID329574904 | -1.35 | active |
| NOTCH1 | SID329574649 | -1.37 | active |

Sorted by “z-score vs non-targeting control” (lowest first): some entries from above.
| target | PubChem SID | z-score vs non-targeting control | outcome |
| --- | --- | --- | --- |
| ANKRD34A | SID329583905 | -1.45 | active |
| FDPS | SID329573626 | -1.38 | active |
| FOXE3 | SID329573659 | -0.897 | inactive |
| SLC18B1 | SID329582328 | -0.883 | inactive |
| GDF3 | SID329576666 | -0.878 | inactive |
| RYBP | SID329577991 | -0.711 | inactive |
| SEC14L3 | SID329583790 | -0.634 | inactive |
| DMAP1 | SID329579936 | -0.508 | inactive |
| OR52N1 | SID329580890 | -0.39 | inactive |
| ARHGEF39 | SID329581765 | -0.367 | inactive |
| GLIPR1 | SID329577480 | -0.2 | inactive |
| ZSWIM7 | SID329582511 | -0.0944 | inactive |
| SACS | SID329578365 | -0.0921 | inactive |
| DMRTC2 | SID329580529 | 0.702 | inactive |
| ENOX2 | SID329577198 | 1.04 | active |
| PAPOLG | SID329580712 | 1.32 | active |
| HCCS | SID329573939 | 1.36 | active |
| MEAK7 | SID329580361 | 1.38 | active |
